{"source": "patent US20240122867A1", "about": "“CORONAL PROTEIN-COATED NANOPARTICLES AND USES THEREOF” (UNIVERSITY OF CENTRAL FLORIDA RESEARCH FOUNDATION, INC., priority 2021, published 2024)", "molecules": {"B1": {"name": "Keratin, type II cytoskeletal 8 (protein, UniProt P11679 1-490, looked up)", "Keratin, type II cytoskeletal …": "MSIRVTQKSYKMSTSGPRAFSSRSFTSGPGARISSSSFSRVGSSSSSFRGSMGTGVGLGGFGGAGVGGITAVTVNQSLLSPLKLEVDPNIQAVRTQEKEQIKSLNNKFASFIDKVRFLEQQNKMLETKWSLLQQQKTSRSNMDNMFESYINNLRRQLEALGQEKLKLEAELGNMQGLVEDFKNKYEDEINKRTEMENEFVLIKKDVDEAYMNKVELESRLEGLTDEINFLRQIHEEEIRELQSQISDTSVVLSMDNSRSLDMDGIIAEVRAQYEDIANRSRAEAETMYQIKYEELQTLAGKHGDDLRRTKTEISEMNRNINRLQAEIEALKGQRASLEAAIADAEQRGEMAIKDAQTKLAELEAALQRAKQDMARQLREYQELMNVKLALDIEITTYRKLLEGEESRLESGMQNMSIHTKTTSGYSGGLSSSYGGLTSPGFSYGMSSFQPGFGSAGGSNTFSRTTKAVVVKKIETRDGKLVSESSDVVSK"}, "B2": {"name": "Keratin, type II cytoskeletal 74 (protein, UniProt Q6IFZ9 1-495, looked up)", "Keratin, type II cytoskeletal …": "MASCHTAGHRTGLSSRSLYSLGGNQHTSYNVAGGSARGTRHSFGYGYGGGRGSGFANSMFGSMALGANCPSVCLSGGIYQVTVNKSLLAPLNVELDPEIQKVRAQEREQIKALNDKFASFIDKVRFLEQQNQVLQTKWELLQQLDLSNCRRNLEPVYEAHISNLRKQLEMLSGERVRLDPDLRKMRDVVEDYKKRYEVEITQRTAAENEFVLLKKDADAAYTVKVELQDKVDSLDKDIKFLKCLYDEEISQLQTHASETSVILSMDNNRDLDLAGIIAEVRAHYEDIALKSKAEAEMLYQTKIQELQLAAGCYGDSLKHIRSEMLELDRLIQRIRCDIANVKKQCSNLEMAIADAEQRGDSALKDAWAKLDELEGALQQAKEELARMLCEYQELMGLKLSLDVEIATYRKLLEGEENRMSGENPSSVSVSVISSSCGSCGYHPSSMISDSEAGNAVGSPSTPRNSQSKTRGSSVDPRDAQDESAAAAGTLARKTT"}, "B3": {"name": "Haptoglobin (protein, UniProt Q61646 19-347, looked up)", "Haptoglobin": "VELGNDAMDFEDDSCPKPPEIANGYVEHLVRYRCRQFYRLRAEGDGVYTLNDEKQWVNTVAGEKLPECEAVCGKPKHPVDQVQRIIGGSMDAKGSFPWQAKMISRHGLTTGATLISDQWLLTTAKNLFLNHSETASAKDITPTLTLYVGKNQLVEIEKVVLHPNHSVVDIGLIKLKQRVLVTERVMPICLPSKDYIAPGRVGYVSGWGRNANFRFTDRLKYVMLPVADQDKCVVHYENSTVPEKKNLTSPVGVQPILNEHTFCAGLTKYQEDTCYGDAGSAFAIHDMEEDTWYAAGILSFDKSCAVAEYGVYVRATDLKDWVQETMAKN"}, "B4": {"name": "C4b-binding protein (protein, UniProt P08607 57-469, looked up)", "C4b-binding protein": "KCGPPPAIPNALPASDVNRTDFESHTTLKYECLPGYGRGISRMMVYCKPSGEWEISVSCAKKHCRNPGYLDNGYVNGETITFGSQIEFSCQEGFILVGSSTSSCEVRGKGVAWSNPFPECVIVKCGPPPDISNGKHSGTEDFYPYNHGISYTCDPGFRLVGSPFIGCTVVNKTVPVWSSSPPTCEKIICSQPNILHGVIVSGYKATYTHRDSVRLACLNGTVLRGRHVIECQGNGNWSSLPTCEFDCDLPPAIVNGYYTSMVYSKITLVTYECDKGYRLVGKAIISCSFSKWKGTAPQCKALCQKPEVGNGTLSDEKDQYVESENVTIQCDSGFAMLGSQSISCSESGTWYPEVPRCEQEASEDLKPALTGNKTMQYVPNSHDVKMALEIYKLTLEVELLQLQIQKEKHTEAH"}, "B5": {"name": "Apolipoprotein C-I (protein, UniProt P34928 27-88, looked up)", "Apolipoprotein C-I": "APDLSGTLESIPDKLKEFGNTLEDKARAAIEHIKQKEILTKTRAWFSEAFGKVKEKLKTTFS"}, "B6": {"name": "Keratin, type I cytoskeletal 16 (protein, UniProt Q9Z2K1 1-469, looked up)", "Keratin, type I cytoskeletal …": "MATCSRQFTSSSSMKGSCGIGGGSSRMSSILAGGSCRAPSTCGGMSVTSSRFSSGGVCGIGGGYGGSFSSSSFGGGLGSGFGGRFDGFGGGFGAGLGGGLGGGIGDGLLVGSEKVTMQNLNDRLATYLDKVRALEEANRDLEVKIRDWYQRQRPTEIKDYSPYFKTIEDLKSKIIIATQENAQFTLQIDNARLAADDFRTKYENELFLRQSVEGDINGLRKVLDELTLSRADLEMQIENLREELAFLKKNHEEEMLALRGQTGGDVNVEMDAAPGVDLSRILNEMRDQYEQMAEKNRRDVEAWFLRKTEELNKEVASNSDLIQSNRSEVAELRRVFQGLEIELQSQLSMKASLENSLEETKGRYCMQLSQIQGLISSVEEQLAQLRCEMEQQSQEYNILLDVKTRLEQEIATYRRLLDGENIHSSSQHSSGQSYSSREVFSSSSRQPRSILKEQGSTSFSQSQSQSSRD"}, "B7": {"name": "Pigment epithelium-derived factor (protein, UniProt P97298 20-417, looked up)", "Pigment epithelium-derived …": "QNVPSSSEGSPVPDSTGEPVEEEDPFFKVPVNKLAAAVSNFGYDLYRLRSSASPTGNVLLSPLSVATALSALSLGAEHRTESVIHRALYYDLITNPDIHSTYKELLASVTAPEKNLKSASRIVFERKLRVKSSFVAPLEKSYGTRPRILTGNPRVDLQEINNWVQAQMKGKIARSTREMPSALSILLLGVAYFKGQWVTKFDSRKTTLQDFHLDEDRTVRVPMMSDPKAILRYGLDSDLNCKIAQLPLTGSMSIIFFLPLTVTQNLTMIEESLTSEFIHDIDRELKTIQAVLTVPKLKLSFEGELTKSLQDMKLQSLFESPDFSKITGKPVKLTQVEHRAAFEWNEEGAGSSPSPGLQPVRLTFPLDYHLNQPFLFVLRDTDTGALLFIGRILDPSST"}, "B8": {"name": "Keratin, type I cytoskeletal 28 (protein, UniProt A6BLY7 1-462, looked up)", "Keratin, type I cytoskeletal …": "MSLRFSGGSRHVGIQSGSLRPPSGGAGFAGSSVAGGSVAGSGFSWALGGTLGSAPGGSHATGALGNVSGVCFIGSEGGLLSGNEKVTMQNLNNRLASYLDNVKALEEANSELERKIKTWHEKYGPGSCRGLDRDYSKYHLTIEDLKSKIISSTAANANIILQIDNARLAADDFRLKYENELTLHQNVEADINGLRRVLDELTLCRTDQELQYESLSEEMTYLKKNHEEEMKVLQCAAGGNVNVEMNAAPGVDLTVLLNNMRAEYEALAEQNRRDAEAWFQEKSATLQQQISNDLGAATSARTELTELKRSLQTLEIELQSLSATKHSLECSLAETEGNYCSQLAQIQAQISALEEQLHQVRTETEGQKLEHEQLLDIKAHLEKEIETYCRLIDGDENSCSVSKGFESGTSGNSPKDVSKTTLVKTVVEEIDQRGKVLSSRIHSIEEKMSKMSNGKAEQRVPF"}, "B9": {"name": "Extracellular matrix protein 1 (protein, UniProt Q61508 20-559, looked up)", "Extracellular matrix protein 1": "ASEGAFKASDQREMTPERLFQHLHEVGYAAPPSPPQTRRLRVDHSVTSLHDPPLFEEQREVQPPSSPEDIPVYEEDWPTFLNPNVDKAGPAVPQEAIPLQKEQPPPQVHIEQKEIDPPAQPQEEIVQKEVKPHTLAGQLPPEPRTWNPARHCQQGRRGVWGHRLDGFPPGRPSPDNLKQICLPERQHVIYGPWNLPQTGYSHLSRQGETLNVLETGYSRCCRCRSDTNRLDCLKLVWEDAMTQFCEAEFSVKTRPHLCCRLRGEERFSCFQKEAPRPDYLLRPCPVHQNGMSSGPQLPFPPGLPTPDNVKNICLLRRFRAVPRNLPATDAIQRQLQALTRLETEFQRCCRQGHNHTCTWKAWEGTLDGYCERELAIKTHPHSCCHYPPSPARDECFAHLAPYPNYDRDILTLDLSRVTPNLMGQLCGSGRVLSKHKQIPGLIQNMTIRCCELPYPEQACCGEEEKLAFIENLCGPRRNSWKDPALCCDLSPEDKQINCFNTNYLRNVALVAGDTGNATGLGEQGPTRGTDANPAPGSKEE"}, "B10": {"name": "Fibrinogen beta chain (protein, UniProt Q8K0E8 35-481, looked up)", "Fibrinogen beta chain": "GHRPVDRRKEEPPSLRPAPPPISGGGYRARPAKATANQKKVERRPPDAGGCLHADTDMGVLCPTGCTLQQTLLNQERPIKSSIAELNNNIQSVSDTSSVTFQYLTLLKDMWKKKQAQVKENENVINEYSSILEDQRLYIDETVNDNIPLNLRVLRSILEDLRSKIQKLESDISAQMEYCRTPCTVSCNIPVVSGKECEEIIRKGGETSEMYLIQPDTSIKPYRVYCDMKTENGGWTVIQNRQDGSVDFGRKWDPYKKGFGNIATNEDAKKYCGLPGEYWLGNDKISQLTRMGPTELLIEMEDWKGDKVKAHYGGFTVQNEASKYQVSVNKYKGTAGNALMDGASQLVGENRTMTIHNGMFFSTYDRDNDGWVTTDPRKQCSKEDGGGWWYNRCHAANPNGRYYWGGLYSWDMSKHGTDDGVVWMNWKGSWYSMRRMSMKIRPFFPQQ"}, "B11": {"name": "Carboxypeptidase B2 (protein, UniProt Q9JHH6 114-422, looked up)", "Carboxypeptidase B2": "ASASYYEQYHSLNEIYSWIEVITEQHPDMLQKIYIGSSFEKYPLYVLKVSGKEQRIKNAIWIDCGIHAREWISPAFCLWFIGYVTQFHGKENLYTRLLRHVDFYIMPVMNVDGYDYTWKKNRMWRKNRSAHKNNRCVGTDLNRNFASKHWCEKGASSSSCSETYCGLYPESEPEVKAVADFLRRNIDHIKAYISMHSYSQQILFPYSYNRSKSKDHEELSLVASEAVRAIESINKNTRYTHGSGSESLYLAPGGSDDWIYDLGIKYSFTIELRDTGRYGFLLPERYIKPTCAEALAAISKIVWHVIRNT"}, "B12": {"name": "Alpha-2-HS-glycoprotein (protein, UniProt P29699 19-345, looked up)", "Alpha-2-HS-glycoprotein": "APQGTGLGFRELACDDPEAEQVALLAVDYLNNHLLQGFKQVLNQIDKVKVWSRRPFGVVYEMEVDTLETTCHALDPTPLANCSVRQLTEHAVEGDCDFHILKQDGQFRVMHTQCHSTPDSAEDVRKLCPRCPLLTPFNDTNVVHTVNTALAAFNTQNNGTYFKLVEISRAQNVPLPVSTLVEFVIAATDCTAKEVTDPAKCNLLAEKQHGFCKANLMHNLGGEEVSVACKLFQTQPQPANANAVGPVPTANAALPADPPASVVVGPVVVPRGLSDHRTYHDLRHAFSPVASVESASGETLHSPKVGQPGAAGPVSPMCPGRIRHFKI"}}, "data": [{"system": "coronal proteins on NPs", "set-up": "species or system mouse", "conditions": "HBPE-NPs incubated 1 h with IAV day 5 (V5) mouse sera, 20:1 NP:sera, centrifuged and washed", "values": [{"molecule": "B1", "V5 Sera_Nanoparticles Quantitative Value (Normalized Total Spectra)": 1.0879}, {"molecule": "B2", "V5 Sera_Nanoparticles Quantitative Value (Normalized Total Spectra)": 1.0879}, {"molecule": "B3", "V5 Sera_Nanoparticles Quantitative Value (Normalized Total Spectra)": 53.308}, {"molecule": "B4", "V5 Sera_Nanoparticles Quantitative Value (Normalized Total Spectra)": 1.0879}, {"molecule": "B5", "V5 Sera_Nanoparticles Quantitative Value (Normalized Total Spectra)": 1.0879}, {"molecule": "B6", "V5 Sera_Nanoparticles Quantitative Value (Normalized Total Spectra)": 1.0879}, {"molecule": "B7", "V5 Sera_Nanoparticles Quantitative Value (Normalized Total Spectra)": 1.0879}, {"molecule": "B8", "V5 Sera_Nanoparticles Quantitative Value (Normalized Total Spectra)": 1.0879}, {"molecule": "B9", "V5 Sera_Nanoparticles Quantitative Value (Normalized Total Spectra)": 1.0879}, {"molecule": "B10", "V5 Sera_Nanoparticles Quantitative Value (Normalized Total Spectra)": 1.0879}, {"molecule": "B11", "V5 Sera_Nanoparticles Quantitative Value (Normalized Total Spectra)": 1.0879}, {"molecule": "B12", "V5 Sera_Nanoparticles Quantitative Value (Normalized Total Spectra)": 46.781}]}, {"system": "coronal proteins on NPs", "set-up": "species or system mouse", "conditions": "IAV day 5 (V5) mouse sera alone, no NPs (sera-only control)", "values": [{"molecule": "B1", "V5 Sera Alone (Control) Quantitative Value (Normalized Total Spectra)": 1.8505}, {"molecule": "B2", "V5 Sera Alone (Control) Quantitative Value (Normalized Total Spectra)": 0}, {"molecule": "B3", "V5 Sera Alone (Control) Quantitative Value (Normalized Total Spectra)": 47.187}, {"molecule": "B4", "V5 Sera Alone (Control) Quantitative Value (Normalized Total Spectra)": 20.355}, {"molecule": "B5", "V5 Sera Alone (Control) Quantitative Value (Normalized Total Spectra)": 10.178}, {"molecule": "B6", "V5 Sera Alone (Control) Quantitative Value (Normalized Total Spectra)": 1.8505}, {"molecule": "B7", "V5 Sera Alone (Control) Quantitative Value (Normalized Total Spectra)": 6.4766}, {"molecule": "B8", "V5 Sera Alone (Control) Quantitative Value (Normalized Total Spectra)": 5.5514}, {"molecule": "B9", "V5 Sera Alone (Control) Quantitative Value (Normalized Total Spectra)": 3.7009}, {"molecule": "B10", "V5 Sera Alone (Control) Quantitative Value (Normalized Total Spectra)": 2.7757}, {"molecule": "B11", "V5 Sera Alone (Control) Quantitative Value (Normalized Total Spectra)": 0.9252}, {"molecule": "B12", "V5 Sera Alone (Control) Quantitative Value (Normalized Total Spectra)": 32.383}]}]}
